# Measurements reported in PubChem BioAssay AID504761 (Drosophila RNAi Screening Center, 2011).
# Test: 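Insect host genes that dengue virus relies on to spread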 (primary screen)
# System: D.Mel-2 cells from Drosophila
# Knock-down reagent: long dsRNA against Drosophila genes
# Conditions: infection with dengue virus type 2; dose and infection time not stated
# Measurement: 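Per well on two replicate plates, imaging gave the percent of cells positive for viral envelope protein, ranked by infection, and a nuclear count of cells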
# Reading the numbers: infection score: higher = more virus-infected cells; cell count: higher = more cells in the well
# Rule for the call: 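Very low infection ranking in both replicate wells (chance probability at most 0.065), then a retest showing infection dropped 1.5-fold or more at p below 0.05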
# Meaning of the calls: active = confirmed: knock-down lowers infection; inactive = not picked or not confirmed
# The deposit covers about 22,000 reagents; shown is an unselected part of those that have a named target and a result. Over the whole deposit, 116 (0.52%) are marked active. 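Calls depend on retest data that are not deposited; infection was ranked per plate without normalising between plates; the unit of the infection score is not given.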 Raw values are not corrected between plates. Unmarked entries are inactive. The record does not give: the amount of reagent, the time to read-out.
Target gene,DRSC id,"infection score, replicate 1","infection score, replicate 2","cell count, replicate 1","cell count, replicate 2"
CG13578,DRSC04214,0.85,6.15,6258,6288
CG14265,DRSC18591,2.98,1.17,5904,6335
CG14265,DRSC29212,18.9,4.35,4761,598
Tpc2,DRSC04322,14.4,10.8,6560,6245
Rel,DRSC16819,9.96,15.1,3917,5803
Slmap,DRSC03799,10.3,7.22,7263,6326
Art9,DRSC16584,2.99,1.54,6396,5982
CG17681,DRSC02632,20.2,4.48,5667,6501
Gnptab,DRSC07057,7.02,3.94,6524,6592
eIF2D,DRSC13916,3.98,0.98,4470,6106
CG12069,DRSC14470,5.25,3.1,3010,6816
CG12069,DRSC26204,3,6.74,6124,5952
CG13933,DRSC08402,11.5,18,5966,5531
Cpsf5,DRSC10374,7.92,5.47,6033,5392
Cpsf5,DRSC27451,8.87,16.9,5679,7176

A few values from above:
Result of Rel [DRSC16819] under “cell count, replicate 2”: 5803
Value for CG12069 [DRSC14470] under “cell count, replicate 2”: 6816
For “cell count, replicate 2”, Slmap [DRSC03799] reads 6326

More reagents follow:
Target gene,DRSC id,"infection score, replicate 1","infection score, replicate 2","cell count, replicate 1","cell count, replicate 2"
Dnai2,DRSC10575,1.99,2.29,6181,6101
GCS1,DRSC19744,5.49,1.97,5815,6386
GCS1,DRSC25625,7.11,8.43,6523,6321
Usp30,DRSC18265,0.58,0.98,6895,6830
Usp30,DRSC29538,,23.2,334,3616
Svip,DRSC08982,3.56,3.41,6315,6750
Svip,DRSC28597,9.27,8,3872,1425
zye,DRSC11784,26.1,20.8,5145,3692
